In experiment [1] the target is T1, MOR (Homo sapiens, UniProt P35372). The experiment is described as follows: Primary binding (PDSP). The settings on record: for MOR mean % inhibition: 10 μM, N = 4 determinations, negative = stimulation of binding; for MOR: Table 7, rounded values of Table 4.
In experiment [2] the target is T1, MOR. The experiment is described as follows: Radioligand competition binding, Ki (PDSP). The settings on record: read-out: MOR Ki. (Displacement assays read how much labelled ligand stays bound in the presence of the test substance.)

pKi: −log10 of the molar value. Read-outs that look alike come from different tables or passages of the source.

In the case of `CN1CC(C(=O)N(C)[C@H]2CCCC[C@@H]2N2CCCC2)CC1=O` (stereo partly drawn), on MOR [1], the “MOR mean % inhibition” value is given as 18.7% and the MOR came out at 19.
As to `CN1CC(C(=O)N2CCCC[C@H]2CN2CCCC2)CC1=O` (stereo partly drawn), at MOR [1], the “MOR mean % inhibition” value turned out to be 7.7% and the MOR stood at 8.
As to `O=C(CCN1CCc2ccccc21)N1CCCC[C@H]1CN1CCCC1`, at MOR [1], the “MOR mean % inhibition” value came out at 11.1% and the MOR came out at 11.
Consider `O=C(C1CCCN1Cc1ccccc1)N1CCCC[C@H]1CN1CCCC1` (stereo partly drawn), for which, on MOR [1], the “MOR mean % inhibition” value was 8.4% and the MOR was 8.
The corresponding values for `CCn1c(=O)n([C@@H]2CCCC[C@H]2N2CCCC2)c2ccccc21` are 4.7% and 5.
With `CCn1c(=O)n([C@H]2CCCC[C@@H]2N2CCCC2)c2ccccc21`, on MOR [1], the “MOR mean % inhibition” value came to 20% and the MOR is 20.
Turning to `O=C(/C=C/c1ccoc1)N1CCCC[C@H]1CN1CCCC1`, on MOR [1], the “MOR mean % inhibition” value stood at 21% and the MOR amounted to 21.
For the compound `O=C(c1ccccc1)N1CCCC[C@H]1CN1CCCC1`, on MOR [1], the “MOR mean % inhibition” value stood at 20.6% and the MOR amounted to 21.
The like results for `O=C(CCN1CCC2(CCc3ccccc32)CC1)N[C@H]1CCCC[C@@H]1N1CCCC1` were, in that order, 36% and 36.
Take `O=C(NCCCN1CCCC[C@H]1CN1CCCC1)C1CCCN1Cc1ccccc1` (stereo partly drawn): on MOR [1], the “MOR mean % inhibition” value was 30.2% and the MOR was 30.
Consider `CN1CC(C(=O)N[C@H]2CCCC[C@@H]2N2CCCC2)CC1=O` (stereo partly drawn), for which, at MOR [1], the “MOR mean % inhibition” value stood at 3.6% and the MOR is on record as 4.
The like results for `O=C(Cc1ccccc1)N1CCCC[C@H]1CN1CCCC1` were, in that order, 13.9% and 14.
For `O=C(Cc1cccc2occc12)N1CCCC[C@H]1CN1CCCC1`, at MOR [1], the “MOR mean % inhibition” value is on record as 23.6% and the MOR worked out at 24.
Turning to `C1CCCC(CN2CCCC[C@H]2CN2CCCC2)CCC1`, at MOR [1], the “MOR mean % inhibition” value is reported as 11.2% and the MOR was 11.
On to `O=C(Cc1ccc2c(c1)OCO2)N1CCCC[C@H]1CN1CCCC1`, for which, on MOR [1], the “MOR mean % inhibition” value was determined as 23.3% and the MOR is given as 23.
The term pKi denotes the negative decadic logarithm of the Ki, by convention in mol/L. Consider `CN(C(=O)Cc1cccc2occc12)[C@H]1CCCC[C@@H]1N1CCCC1`, for which the pKi at MOR [2] (Cheng-Prusoff from best fit IC50) is below 5.00; on MOR [2] (Table 7, values of Table 5), below 5.00. In addition, the “MOR mean % inhibition” value on MOR [1] is on record as 62%. Further, the MOR at MOR [1] worked out at 62.
`CN(C(=O)CCN1CCC2(CCc3ccccc32)CC1)[C@H]1CCCC[C@@H]1N1CCCC1`: at MOR [1], the “MOR mean % inhibition” value is on record as 47.8% and the MOR is 48.

For the origin of these results see patent US10167295B2 (priority 2013, dated 2019).
